Measured values reported in patent US20130059096A1, “METHODS AND COATINGS FOR TREATING BIOFILMS” (President and Fellows of Harvard College, priority 2010, published 2013).

System: cell wall
Experiment: Incorporation of radioactive amino acids into the cell wall
Type: cell-based, Bacillus subtilis
Settings: 14C-labelled, 10 μCi/ml, 2 h at 37° C.

| SMILES | Incorporation into the cell wall (FIG. 3A) | total incorporation into cells |
| --- | --- | --- |
| N[C@H](Cc1ccc(O)cc1)C(=O)O [D-tyrosine] | incorporated into the cell wall | 46,000 cpm/ml |
| O=C(O)[C@@H]1CCCN1 [L-proline, reference compound] | but not | 360,000 cpm/ml |
